Results of unrelated studies side by side (data: NIAID ChemDB).

Common to all: growth or infection tests; agent: Mycobacterium tuberculosis

MIC bound comes from a single tested concentration. a–b is a range or a potency band. Inhibition is in % at the dose shown (toxicity tests: loss of growth or viability). An empty or dashed field is not shown. ECn is the concentration giving n% inhibition of infection, replication or growth. MIC50, MIC90 and the like: level of inhibition, or share of isolates inhibited. Neighbouring rows are from separate reports.

SMILES | endpoint | method | setting | cells | strain | tested at | value
O=[N+]([O-])c1ccc(/C=N/NC(=S)N2CCCCC2)o1 | MIC | - | - | - | - | - | 100 µg/mL
CCCC(C)Oc1ccc(NC(=S)NCCC(=O)O)cc1 | MIC | - | - | - | H37Rv | - | 2.5 µg/mL
O=C(N/N=C/c1ccc([N+](=O)[O-])o1)N1CCCC1 | MIC | - | - | - | - | - | 10 µg/mL
NNC(=O)c1ccncc1 | MIC99 | - | - | - | MC2 6230 | - | 0.18 µM
CCN1CCN(c2[nH]n3c(=O)cc(C)nc3c2C(=O)Nc2cccc(Cl)c2Cl)CC1 | MIC | resazurin | - | - | H37Rv | - | 50 µg/mL
CC(C)Oc1ccc(NC(=S)NCCC(=O)O)cc1 | MIC | - | - | - | H37Rv | - | 2.5 µg/mL
O=C1c2ccccc2-c2c1c1ccccc1c(=O)n2-c1ccccc1 | inhibition | resazurin | - | - | H37Rv | 6.25 µg/mL | 13%
NC(=O)N/N=C/c1ccc([N+](=O)[O-])o1 | MIC | - | - | - | - | - | 20 µg/mL
Cn1cnnc1SCc1ccc(C(N)=S)cc1 | MIC | - | - | - | My 331/88 | - | 250 µM
O=C(NCCOc1cccc(F)c1)c1cc([N+](=O)[O-])cc(C(F)(F)F)c1 | MIC90 | resazurin | - | - | H37Rv | - | 1 µg/mL
O=C1NC(NNC(=O)c2ccncc2)=N/C1=C\c1cccc(Cl)c1 | EC50 | resazurin | - | VERO | H37Rv | - | <12.5 µg/mL
O=C(O)CCNC(=S)Nc1ccccc1 | MIC | - | - | - | H37Rv | - | 2.5 µg/mL
COC(=O)CSC(=S)Nc1nnc(NC(=S)SCC(=O)OC)n1C(=S)SCC(=O)OC | inhibition | resazurin | - | - | H37Rv | 6.25 µg/mL | 10%
O=C1O[C@@H](Cn2ccnn2)CN1c1ccc(N2C[C@H]3CC(NCc4ccccc4)C[C@H]3C2)c(F)c1 | MIC | broth dilution / resazurin | - | - | H37Rv | - | 32 µg/mL
c1ccc(Nc2cnc3cc4ccccc4cc3n2)cc1 | EC50 | - | - | - | Erdman | - | 10–20 µM
Clc1ccc(-n2cc(Cn3c4ccccc4c4ccccc43)nn2)c(Cl)c1 | MIC | agar | - | - | H37Rv | - | 25 µg/mL
S=c1nc[nH][nH]1 | MIC | - | - | - | My 331/88 | - | 500 µM
O=C(O)c1cn(C2CC2)c2cc(N3CCN(C/C(=N/OCc4ccccc4)c4cccs4)CC3)c(F)cc2c1=O | inhibition | - | - | - | H37Rv | 6.25 µg/mL | 69%
CCC(C)Oc1ccc(NC(=S)NCCC(=O)O)cc1 | MIC | - | - | - | H37Rv | - | 2.5 µg/mL
CCOC(=O)Cn1cc(Cn2c3ccccc3c3ccccc32)nn1 | MIC | agar | - | - | H37Rv | - | 12.5 µg/mL
O=C(/C=C/c1ccccc1)c1ccc(O)cc1 | MIC | MTT | 21 d | - | H37Rv | - | 32 µg/mL
OCCCCCn1cc(Cn2c3ccccc3c3ccccc32)nn1 | MIC | agar | - | - | H37Rv | - | 25 µg/mL
COc1ccc(C(=O)N/N=C2\C(=O)c3c(C)cc(C)cc3CC2(C)C)cc1 | inhibition | BACTEC | - | - | H37Rv | 12.5 µg/mL | 69%
COc1ccc(C(=O)/C=C/c2ccc(F)cc2)c(F)c1 | MIC | MTT | 14 d | - | H37Rv | - | 32 µg/mL
CCn1cc(C(=O)O)c(=O)c2cc(F)c(N3CCN(CC(=O)c4ccco4)CC3)cc21 | inhibition | - | - | - | H37Rv | 6.25 µg/mL | 33%
Cn1c(=O)c2c(=O)n3ccccc3nc2n(C)c1=O | inhibition | resazurin | - | - | H37Rv | 6.25 µg/mL | 0%
O=C1NC(NNC(=O)c2ccncc2)=N/C1=C\c1ccccc1Cl | MIC | - | - | - | ATCC 35838 (rifampin-resistant) | - | ≤1.56 µg/mL
CC(=O)Cn1cc(Cn2c3ccccc3c3ccccc32)nn1 | MIC | agar | - | - | H37Rv | - | 12.5 µg/mL
CC(CNCC(c1ccccc1)c1ccccc1)NC[C@@H]1CC[C@H]2C[C@@H]1C2(C)C | MIC | - | - | - | H37Rv | - | 0.5 µM
CCCOc1ccc(NC(=S)NCCC(=O)O)cc1 | MIC | - | - | - | H37Rv | - | 1.3 µg/mL
CC(=O)NC[C@H]1CN(c2ccc(N3C[C@H]4CC(NC(=O)c5ccc([N+](=O)[O-])cc5)C[C@H]4C3)c(F)c2)C(=O)O1 | MIC | broth dilution / resazurin | - | - | H37Rv | - | 0.5 µg/mL
CO[C@H]1/C=C/O[C@@]2(C)Oc3c(C)c(O)c4c(O)c(c(/C=N/N5CCN(C)CC5)c(O)c4c3C2=O)NC(=O)/C(C)=C\C=C\[C@H](C)[C@H](O)[C@@H](C)[C@@H](O)[C@@H](C)[C@H](OC(C)=O)[C@@H]1C | MIC | resazurin | - | - | H37Ra | - | 0.03 µM
COc1ccc(C(=O)/C=C/c2ccccc2Cl)c(F)c1 | MIC | resazurin | 21 d | - | H37Rv | - | 32 µg/mL
Cc1cc(=O)n2[nH]c(Nc3ccc(Cl)cc3)c(C(N)=O)c2n1 | MIC | resazurin | - | - | H37Rv | - | 50 µg/mL
O=C(/C=C/c1ccc(F)cc1Cl)c1ccccc1 | MIC | MTT | 21 d | - | H37Rv | - | 32 µg/mL
O=C(Nc1ccccc1)NC1C[C@@H]2CN(c3ccc(N4C[C@H](Cn5ccnn5)OC4=O)cc3F)C[C@@H]2C1 | MIC | broth dilution / resazurin | - | - | H37Rv | - | 4 µg/mL
COc1cccc(Cn2cc(Cn3c4ccccc4c4ccccc43)nn2)c1 | MIC | agar | - | - | H37Rv | - | 12.5 µg/mL
[N-]=[N+]=Nc1nn2cnnc2c2[nH]c3ccccc3c12 | inhibition | resazurin | - | - | H37Rv | 6.25 µg/mL | 46%
COc1ccc(CSc2ncn[nH]2)cc1 | MIC | - | - | - | My 331/88 | - | 1000 µM
C[C@@H]1[C@H]2C[C@@H](C[C@H]1NCCNCCC(c1ccccc1)c1ccccc1)C2(C)C | MIC | - | - | - | H37Rv | - | 3 µM
C=C1CCC[C@@H]2[C@@](C)(CC3=CC(=O)C=CC3=O)[C@H](C)CC[C@]12C | inhibition | BACTEC | - | - | H37Rv | 128 µg/mL | 100%
NNC(=O)c1ccncc1 | MIC | - | - | - | H37Rv (ATCC 27294) | - | 0.16 µg/mL
CCCOc1ccc(N2C(=O)CCNC2=S)cc1 | MIC | - | - | - | H37Rv | - | 5 µg/mL
Nc1ncnc2c1ncn2[C@@H]1O[C@H](CNS(=O)(=O)NC(=O)c2ccccc2[O-])[C@@H](O)[C@H]1O | MIC | - | - | - | H37Rv | - | 0.19 µM
CCOC(=O)c1cnc2c(ccc3ncccc32)c1Cl | MIC | BACTEC | - | - | H37Rv | - | ≥12.5 µg/mL
O=C1O[C@@H](Cn2ccnn2)CN1c1ccc(N2C[C@H]3CC(n4ccnn4)C[C@H]3C2)c(F)c1 | MIC | broth dilution / resazurin | - | - | H37Rv | - | 2 µg/mL
O=C(/C=C/c1c(F)cccc1Cl)c1ccccc1 | MIC | MTT | 14 d | - | H37Rv | - | 16 µg/mL
CCC(CO)NCCNCCc1ccc(OC)c(OC)c1 | MIC | - | - | - | H37Rv | - | 300 µM
COc1cc(C)c(CC(NC(=O)C2CCCCC2)C(=O)O)c(OC)c1 | inhibition | BACTEC | - | - | H37Rv | 12.5 µg/mL | 4%
O=C(O)CCNC(=S)NC1CCCCC1 | MIC | - | - | - | H37Rv | - | 2.5 µg/mL
COc1ccc(C(=O)/C=C/c2ccc(F)cc2Cl)cc1 | MIC | resazurin | 7 d | - | H37Rv | - | 32 µg/mL
NNC(=O)c1ccncc1 | MIC | resazurin | - | - | H37Rv | - | 0.6 µM
O=[N+]([O-])c1ccc(/C=N/NC(=S)N2CCCC2)o1 | MIC | - | - | - | - | - | 100 µg/mL
O=C(O)c1cn(C2CC2)c2cc(N3CCN(C/C(=N/O)c4ccco4)CC3)c(F)cc2c1=O | inhibition | - | - | - | H37Rv | 6.25 µg/mL | 26%
C[C@@H]1[C@H]2C[C@@H](C[C@H]1NCCNCC1C[C@@H]3C[C@H](C1)C3(C)C)C2(C)C | MIC | - | - | - | H37Rv | - | 1 µM
Cn1c2cc(=O)ccc2c2c3nc4ccccc4[nH]c3cc(O)c21 | inhibition | BACTEC | - | - | H37Rv | 12.5 µg/mL | 13%
CO/N=C(/CN1CCN(c2cc3c(cc2F)c(=O)c(C(=O)O)cn3C2CC2)CC1)c1cccs1 | MIC | - | - | - | H37Rv | - | 6.25 µg/mL
O=C1C=C(Nc2ccccn2)C(=O)C=C1Nc1ccccn1 | inhibition | resazurin | - | - | H37Rv | 6.25 µg/mL | -78%
Nc1ncnc2c1ncn2[C@H]1CC[C@@H](COS(=O)(=O)NC(=O)c2ccccc2O)C1 | MIC | - | - | - | H37Rv | - | >200 µM
O=C1c2ccccc2C(=O)c2c1sc1nc3ccccc3n21 | inhibition | BACTEC | - | - | H37Rv | 12.5 µg/mL | 99%
Nc1ncnc2c1ncn2[C@@H]1O[C@H](COS(=O)(=O)NC(=O)c2ccccc2O)C[C@H]1O | MIC | - | - | - | H37Rv | - | 1.56 µM
Cc1ccc(Nc2[nH]n3c(=O)cc(C)nc3c2C(=O)Nc2ccc(F)c(Cl)c2)cc1 | MIC | resazurin | - | - | H37Rv | - | 12.5 µg/mL
O=c1c2ccc(Cl)cc2nc2nc(-c3ccccc3)c3cc(Cl)ccc3n12 | MIC bound | BACTEC | - | - | H37Rv | - | >12.5 µg/mL
O=C1C(=O)N(CC#CCN2CCN(c3ccnc4cc(Cl)ccc34)CC2)c2ccccc21 | MIC99 | - | - | - | MC2 6230 | - | >225 µM
COc1cc(Cc2nccc3cc(OC)c(OC)cc23)c(C(C)=O)cc1OC | inhibition | BACTEC | - | - | H37Rv | 12.8 µg/mL | 62%
Brc1ccc(-n2cc(Cn3c4ccccc4c4ccccc43)nn2)cc1 | MIC | agar | - | - | H37Rv | - | 50 µg/mL
O=C1C=C(Nc2nc(C(=O)O)cc(=O)[nH]2)c2ccccc2C1=O | MIC bound | BACTEC | - | - | H37Rv | - | >12.5 µg/mL
O=C(/C=C/c1ccc(F)cc1)c1ccc(F)cc1 | MIC | MTT | 7 d | - | H37Rv | - | 32 µg/mL
COC(=O)[C@H]1[C@H](O)[C@H](C)[C@@H](O)[C@@H](C)/C=C(\C)C2=C3C(=C(C)C(=O)c4c(O)c(c(C)c(OC(C)=O)c43)NC(=O)/C(C)=C/C=C\[C@@H](C)C(O)[C@@H](C)[C@H]1O)OCO2 | MIC bound | BACTEC | - | - | H37Rv | - | >12.5 µg/mL
O=C1C(=O)N(CCCCN2CCN(c3ccnc4cc(Cl)ccc34)CC2)c2ccccc21 | MIC99 | - | - | - | MC2 6230 | - | 55.8 µM
CCn1cc(C(=O)O)c(=O)c2cc(F)c(N3CCN(C/C(=N/O)c4cccs4)CC3)cc21 | inhibition | - | - | - | H37Rv | 6.25 µg/mL | 1%
CCC(C)NCCNC(CC)CO | MIC | - | - | - | H37Rv | - | 150 µM
CCOC(=O)N1C=NC23C(c4ccccc4)C(c4ccccc4)C12C(=O)N(C)C(=O)N3C | MIC bound | resazurin | - | - | H37Rv | - | >6.25 µg/mL
C[C@@H]1CN(c2c(F)c(N)c3c(=O)c(C(=O)O)cn(C4CC4)c3c2F)C[C@H](C)N1 | MIC | - | - | - | 900233 | - | 0.2 µg/mL
Fc1ccc(-n2cc(Cn3c4ccccc4c4ccccc43)nn2)c(F)c1 | MIC | agar | - | - | H37Rv | - | 50 µg/mL
O=C(NCCOc1ccc(Cl)cc1)c1cc([N+](=O)[O-])cc(C(F)(F)F)c1 | MIC90 | resazurin | - | - | H37Rv | - | 1 µg/mL
NC(=S)c1ccc(CSc2ncn[nH]2)cc1 | MIC | - | - | - | My 331/88 | - | 125 µM
O=C1NC(Nc2ccc(Cl)cc2)=N/C1=C\c1ccc(Cl)cc1Cl | inhibition | - | - | - | H37Rv | 12.5 µg/mL | 100%
Fc1ccc(Cn2cc(Cn3c4ccccc4c4ccccc43)nn2)cc1Br | MIC | agar | - | - | H37Rv | - | 6.25 µg/mL
COc1cc(C)c2c(Oc3cccc(C(F)(F)F)c3)c(OC)cc(NC(C)CCCN)c2n1 | MIC | resazurin | - | - | H37Rv | - | 20 µM
Fc1cccc(Cl)c1C1SCc2nc3ccccc3n21 | inhibition | BACTEC | - | - | H37Rv | 12.5 µg/mL | 0%
Brc1ccc(CSc2ncn[nH]2)cc1 | MIC | - | - | - | My 331/88 | - | 500 µM
O=C1N(c2ccccc2)C(=Nc2ccccc2)C(=Nc2ccccc2)N1c1ccccc1 | MIC bound | BACTEC | - | - | H37Rv | - | >12.5 µg/mL
C[C@H]1CCC2C(C)(C)CCC[C@]23Oc2ccc(O)c(Cl)c2C[C@]13C | EC50 | - | - | - | H37Rv | - | >6.25 µg/mL
O=C(CSc1nnc(-c2ccncc2)s1)Nc1ccccc1Cl | MIC | turbidity / absorbance | - | - | H37Rv | - | 6.81 µM
O=C1NC(NNC(=O)c2ccncc2)=N/C1=C\c1ccc(Cl)cc1Cl | inhibition | resazurin | - | - | H37Rv | 12.5 µg/mL | 0%
Cc1onc(-c2ccccc2Cl)c1C(=O)NC(=S)NC1CC(C)CC(C)(C)C1 | inhibition | resazurin | - | - | H37Rv | 6.25 µg/mL | 40%
COc1ccc(NC(=S)NCCC(=O)O)cc1 | MIC | - | - | - | H37Rv | - | 1.3 µg/mL
O=C1NNC(=O)C2C3C=CC(O3)C12 | inhibition | BACTEC | - | - | H37Rv | 12.5 µg/mL | -11%
CCCN(CCC)C(=S)N/N=C/c1ccc([N+](=O)[O-])o1 | MIC | - | - | - | - | - | 100 µg/mL

Repeating the first 5 entries:

SMILES	endpoint	method	setting	cells	strain	tested at	value
O=[N+]([O-])c1ccc(/C=N/NC(=S)N2CCCCC2)o1	MIC	-	-	-	-	-	100 µg/mL
CCCC(C)Oc1ccc(NC(=S)NCCC(=O)O)cc1	MIC	-	-	-	H37Rv	-	2.5 µg/mL
O=C(N/N=C/c1ccc([N+](=O)[O-])o1)N1CCCC1	MIC	-	-	-	-	-	10 µg/mL
NNC(=O)c1ccncc1	MIC99	-	-	-	MC2 6230	-	0.18 µM
CCN1CCN(c2[nH]n3c(=O)cc(C)nc3c2C(=O)Nc2cccc(Cl)c2Cl)CC1	MIC	resazurin	-	-	H37Rv	-	50 µg/mL